PubChem BioAssay AID1259414, Drosophila RNAi Screening Center, 2018
In all, the deposit lists about 24,000 reagents; shown is a random part of those that have a named target and a result. In the full data, about 1,210 (5%) got an active call. 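Inactive calls also include excluded dsRNAs with several or no targets, genes unexpressed in JW18, and well A1, regardless of score.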 A number with no mark means an inactive call. A plus sign joins genes that one reagent is predicted to hit.

- Aim: 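Genome-wide screen for host control of endosymbiont load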 (primary screen)
- Cells: Drosophila JW18 cells infected with Wolbachia
- Reagent: long dsRNA against Drosophila genes, 0.25 µg dsRNA per well of a 384-well plate
- Time to read-out: 5 days
- Challenge: cells persistently infected with Wolbachia before knock-down; no added drug
- Measured: 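Automated imaging of bacterial rRNA staining divided by host cell count, reported as plate-normalised robust z-score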
- Direction: Wolbachia per cell robust z: higher = more Wolbachia per host cell than the plate typical
- Rule for the call: 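Hit when robust z is 1.5 or more, or -1.5 or less, in at least two of three replicates; excludes dsRNAs with several or no targets, genes not expressed in JW18 and well A1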

target,DRSC id,"Wolbachia per cell robust z, rep 1","Wolbachia per cell robust z, rep 2","Wolbachia per cell robust z, rep 3"
chp (chaoptin),DRSC16925,-0.657,0.325,-7.48
chp (chaoptin),DRSC26106,-2.24,-1.1,0.0223
CG12680,DRSC17871,-0.348,-0.103,-1.96
VhaM9.7-c (Vacuolar H[+] ATPase M9.7 subunit c),DRSC08204,-0.0972,1.16,0.195
VhaM9.7-c (Vacuolar H[+] ATPase M9.7 subunit c),DRSC30083,0.61,-0.736,0.363
"AP-2sigma (Adaptor Protein complex 2, sigma subunit)",DRSC15957,-0.262,0.389,0.23
lncRNA:CR31781 (long non-coding RNA:CR31781),DRSC02431,0.865,0.641,1.93
lncRNA:CR31781 (long non-coding RNA:CR31781),DRSC02432,0.0671,1.16,0.503
CG14803,DRSC18556,0.475,0.567,0.67
CG8012,DRSC10951,-1.26,-0.0582,-0.873
Ir7g (Ionotropic receptor 7g),DRSC18008,0.306,0.335,0.108
Ir7g (Ionotropic receptor 7g),DRSC28922,1.46,0.303,0.185
Pal1 + Pdrg1,DRSC06587,-2.13,0.332,0.457
CG12917,DRSC06231,0.315,-0.255,-0.702
CG11145,DRSC06049,-0.178,-0.705,0.504
Vago,DRSC19833,-1.25,0.865,-0.0289
Vago,DRSC26320,0.824,0.736,1.11
gprs,DRSC06761,-0.48,-0.509,-0.346
Mal-A5 (Maltase A5),DRSC07232,0.434,-0.578,-1.19
Mal-A5 (Maltase A5),DRSC29506,0.193,-1.94,-0.663
edin (elevated during infection),DRSC09488,-0.228,-0.221,0.157
CG5478,DRSC15814,-1.74,0.186,0.99
Amy-d + Amy-p,DRSC24129,-0.147,0.731,-0.413
CG7394,DRSC10835,-0.23,-1.89,-1.23
Lac (Lachesin),DRSC07452,0.827,0.646,-0.733
Obp28a (Odorant-binding protein 28a),DRSC03394,-0.141,2.23,1.04
Obp28a (Odorant-binding protein 28a),DRSC25374,-0.52,0.224,-2.26
CG5823,DRSC15881,1.02,-4.9,-0.76

No new results follow: an excerpt of the list.
target,DRSC id,"Wolbachia per cell robust z, rep 1","Wolbachia per cell robust z, rep 2","Wolbachia per cell robust z, rep 3"
lncRNA:CR31781 (long non-coding RNA:CR31781),DRSC02432,0.0671,1.16,0.503
CG14803,DRSC18556,0.475,0.567,0.67
CG8012,DRSC10951,-1.26,-0.0582,-0.873
Ir7g (Ionotropic receptor 7g),DRSC18008,0.306,0.335,0.108
